Reference: paper PMC11988556, “Combined Cytotoxic Effects of the Fungicide Azoxystrobin and Common Food-Contaminating Mycotoxins” (Foods, 2025)

Legend:
HepG2 cells [1] = test: resazurin reduction cytotoxicity assay, with CI-isobologram analysis of mixtures; type: cell-based, human
HepG2 cells [2] = test: MTT cytotoxicity assay, with CI-isobologram analysis of mixtures; type: cell-based, human

Compound | m (Hill coefficient of the dose-effect curve) (HepG2 cells [1]) | m (Hill coefficient of the dose-effect curve) (HepG2 cells [2]) | m (Hill coefficient of the dose-effect curve) (HepG2 cells [1]; resazurin method, HepG2, 24 h) | m (Hill coefficient of the dose-effect curve) (HepG2 cells [2]; MTT method, HepG2, 24 h)
CC(=O)OC[C@]12C[C@H](OC(=O)CC(C)C)C(C)=C[C@H]1O[C@@H]1[C@H](O)[C@@H](OC(C)=O)[C@@]2(C)[C@]12CO2 [T2, T-2 toxin] | 0.91 | 0.94 |  | 
C[C@@H]1Cc2c(Cl)cc(C(=O)N[C@@H](Cc3ccccc3)C(=O)O)c(O)c2C(=O)O1 [OTA, ochratoxin A] |  |  | 1.03 | 1.26
CC1=C[C@H]2O[C@@H]3[C@H](O)C[C@](C)([C@@]2(CO)[C@H](O)C1=O)[C@]31CO1 [DON, deoxynivalenol] |  |  | 0.90 | 0.69
CO/C=C(/C(=O)OC)c1ccccc1Oc1cc(Oc2ccccc2C#N)ncn1 [AZX, azoxystrobin] |  |  | 0.99 | 0.81
